# Human monoclonal antibodies against the spike receptor-binding domain (heavy:light variable regions). IC50 against pseudoviruses bearing the spike of naturally observed variants; lower = stronger; >10 µg/ml means not reached at the top dose. No active / inactive call. The stated detection limit is 0.0005 µg/ml; values near or below 0.001 µg/ml lie at the floor of the assay.
# B1: BD56-068 (protein)
# chain 1: EVQLLESGGGLIQPGGSLRLSCAASGFSFNLYAMTWVRQAPGKGLEWVSTMSGSGDSTHYADSVKGRFTISRDNSKSTLFLQMNSLRAEDTAIYYCAKNIDMSFFDYWGQGTLVTVSS
# chain 2: SYVLTQPPSVSVAPGKTARITCGGNKIGSQSVHWYRQKPGQAPLVVIYYDTDRPSGIPERFSGSNSGNTATLTISRVEAGDEADYYCQVWDSSSDQPIFGGGTKLTVL
# B2: BD56-070 (protein)
# chain 1: EVQLVESGGGLVQPGRSLRLSCAASGFTFDDYAMHWVRQAPGKGLEWVSGSSWNSGTIGYAESVKGRFIISRDNAKNSLYLQMIRLRAEDTALYYCAKDFRGSYREGYSMDVWGQGTTVTVSS
# chain 2: QSALTQPASVSGSPGQSITISCTGASSDIGTYNYVSWYQQHPGKAPKLMISDVSKRPSGVSNRFSGSKSGDTASLTISGLQTEDEADYYCSSYTSTSTVLFGGGTKLTVL
# B3: BD56-073 (protein)
# chain 1: EVLLLESGGALVQPGESLRLSCAASGFSFSSYAMSWVRQAPGKGLEWVSAISGSGGLKYYADSVKGRFTLSRDNSKNTLYLQMNSLRAEDTAVYYCAREESHRETGVPNWFDPWGQGTLVTVSS
# chain 2: DIQMTQSPSSLSASVGDRVTITCRASQSISSSLNWYQQRPGNAPKLLIYAASSLQSGVPSRFSGSGSGTDFTLTISSLQPEDFATYYCQQSYITPPWTFGQGTKVEIK
# B4: BD56-078 (protein)
# chain 1: QVQLVESGGGVVQPGRSLRLSCAASKFTFSNFALHWVRQAPGKGLDWVAVISFDGNNNYYADSVKGRFTISRDNSKNTLYLEMNSLRAEDTAVYFCARGDYYGSGSYYNPLPNFDYWGQGALVTVSS
# chain 2: QSVLTQPPSASGTPGQGVTISCSGSSSNIGSYSVNWYQQLPGTAPKLLIYSDNQRPSGVPDRISGSKSGTSASLAISGLQSGDEADYYCAAWDDSLNGWVFGGGTKLTVL
# B5: BD56-080 (protein)
# chain 1: QVQLVQSGAEVKKPGSSVKVSCKASGGTFSSYSITWVRQAPGQGLEWMGRIIPILEIPNYAQKFQGTVTITADKSTSTAYLELRSLRSEDTAVYYCVREVGYSSMSSSYYFDNWGQGTLVTVSS
# chain 2: QSVLTQPPSVSGAPGQRVTISCTGSSSNIGAGYDVHWYQQLPGTAPKLLIYANTNRPSGVPDRFSGSKSGTSVSLVITGLQAEDELDYYCQSYDSSLSGSVFGGGTKLTVL
# B6: BD56-082 (protein)
# chain 1: QVQLQESGPGLVKPSQTLSLTCTVSGGSISSGRYFLNWIRQPAGKGLEWIGRIYGNGSTNCNPSLKSRVTISVDTSKNQFSLKLSSVTAADTAVYYCARDCFPDYDLFTGYYDDFYFDLWGRGTLVTVSS
# chain 2: SYELTQPPSVSVSPGQTARITCSGDALPKQYTYWYLQKPGQAPIVVMYKDSERPSGIPERFSGSSSGTTVTLTISGVQAEDEADYYCQSADSSGVVFGGGTKLTVL
# B7: BD56-088 (protein)
# chain 1: EVQLVESGGGLVQPGGSLRLSCSASGFTFSSFPMHWVRQAPGKGLEYVSSISSDGGITYYADSVKGRFTISRDNSKNTLYLQMSSLRAEDTAMYYCVKDKPLAPVDYFDYWGQGTLVIVSS
# chain 2: DIQMTQSPSSLSASVGDRVTITCRASQSISRYLNWYQQKPGKAPKLLIYDASNLQSGVPSRFSGGGSGTDFTLTISSLQPEDFATYYCQQSYSTPDSFGQGTKLEIK
# B8: DH1043 (protein)
# chain 1: QVQLVQSGAEVKKPGSSVKVSCKASGGTFSRYAINWVRQAPGQGLEWMGRIIPIFGIANYAQKFQGKVTITADKSTSTAYMELSSLRSEDTAVYYCARADYYYDSSGYFFDYWGQGTLVTVSS
# chain 2: EIVLTQSPGTLSLSPGERATLSCRASQSVSSSYLAWYQQKPGQTPRLLIYGASSRATGIPARFSGSGSGTNFTLTISRLEPEDFAVYYCQQYSSSRTFGQGTKVEIK
# B9: BD56-102 (protein)
# chain 1: QVQLVQSGAEVKKPGSSVKVSCKASGGIFSRYSISWVRQAPGLGLEWMGRIIPILGIAIYAQKFQGRVTITADKSTSTAYMGLSSLRSEDSAVYYCARDLDPPQLRLGELALSFGFDIWGRGTLVTVSS
# chain 2: QSVLTQPPSASGTPGQRVTISCSGSSSNIGSHTVSWYQQFPGTAPKLLIYSNNQRPSGVPDRFSGSKSGTSASLAISGLQSEDEADYYCAAWDDNLTGYYVFGTGTAVTVL
# B10: BD56-103 (protein)
# chain 1: QITLKESDPTLVKPTQTLTLTCTFSGFSLNTSGVGVGWIRQPPGKALEWLALIFWNDDKRYSPSLTSRLTITKDTSKNQVVLTMSDVDPVDTATYFCAHKSRPYSVAYYDDYYFDYWGQGTLVSVSS
# chain 2: SNELTQPPSVSVSPGQTARITCSGDAFPNQYAYWYQQKPGQAPVVVMYKDSERPSGIPERFSGSSSGTTVTLTISGVQAEDEAAYYCQTADSSGTVFGGGTKLTVL
# B11: BD56-106 (protein)
# chain 1: QVQLVQSGAEVKKPGSSVKVSCKASRGTFSSYGISWVRQAPGQGLEWVGGIIPIFGTANYAQRFKGRVTITADESTSTAYMELSNLRSDDTGVYYCGRTYYYDSDGVAEGTDYWGQGTLVTVSS
# chain 2: DIQLTQSPSFLSASVGDRVTITCRASQGISSYLAWYQQKPGEAPKLLIYAASTLQSGVPSRFSGSGSGTEFTLTISSLQPEDFATYYCQKLNSYPWTIGQGTKVEIK
# B12: BD56-108 (protein)
# chain 1: EVQLVQSGAEVKKPGTTVKISCKGSGFIFTNNYMQWVQQAPGKGLEWMGLVDPEDGETRYAENFQGRVTITADTSTDTSYMELSSLRSEDTAVYYCAAVAKYSSAWRNFDFWGQGTLVTVSS
# chain 2: QTVVTQEPSLTVSPGGTVTLTCASSTGAVTSAYFPNWFQQKPGQPPRPLIYSTSNKHSWTPARFSGSLLGGKAALTLSGVQPEDEADYYCLLNHGHAHWVFGGGTKLTVL
# Biological target: SARS-CoV-2 Omicron BA.1 spike pseudovirus
# Experiment: pseudovirus neutralization IC50; higher = weaker neutralization
# Experimental: (§1)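 Single-round VSV luciferase pseudovirus mixed with antibody dilutions for 1 h and put on Huh-7 cells for about a day; IC50 from the dose curve.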
row,Binder,pseudovirus neutralization IC50 [µg/mL]
1,B1,1.75
2,B2,0.0798
3,B3,3.58
4,B4,0.0311
5,B5,0.743
6,B6,> 10
7,B7,> 10
8,B8,> 10
9,B9,1.23
10,B10,6.57
11,B11,0.171
12,B12,0.00104

# Biological target: SARS-CoV-2 Omicron BA.2 spike pseudovirus
# Experiment: as above
# Experimental: as §1
row,Binder,pseudovirus neutralization IC50 [µg/mL]
1,B1,1.99
2,B2,0.069
3,B3,6.05
4,B4,0.0132
5,B5,0.606
6,B6,> 10
7,B7,> 10
8,B8,> 10
9,B9,1.75
10,B10,5.39
11,B11,0.198
12,B12,0.000903

# Biological target: SARS-CoV-2 Omicron BA.2.75 spike pseudovirus
# Experiment: as above
# Experimental: as §1
row,Binder,pseudovirus neutralization IC50 [µg/mL]
1,B1,1.76
2,B2,0.0792
3,B3,4.42
4,B4,0.0458
5,B5,0.864
6,B6,> 10
7,B7,> 10
8,B8,> 10
9,B9,1.88
10,B10,8.24
11,B11,0.23
12,B12,0.0008

# Biological target: SARS-CoV-2 Omicron BA.5 spike pseudovirus
# Experiment: as above
# Experimental: as §1
row,Binder,pseudovirus neutralization IC50 [µg/mL]
1,B1,> 10
2,B2,2.69
3,B3,5.1
4,B4,> 10
5,B5,> 10
6,B6,> 10
7,B7,> 10
8,B8,> 10
9,B9,1.63
10,B10,5.82
11,B11,0.172
12,B12,2.6

# Biological target: SARS-CoV-2 Omicron BQ.1.1 spike pseudovirus
# Experiment: as above
# Experimental: as §1
row,Binder,pseudovirus neutralization IC50 [µg/mL]
1,B1,> 10
2,B2,> 10
3,B3,2.92
4,B4,> 10
5,B5,> 10
6,B6,> 10
7,B7,> 10
8,B8,> 10
9,B9,2.11
10,B10,3.53
11,B11,> 10
12,B12,> 10

# Biological target: SARS-CoV-2 Omicron XBB spike pseudovirus
# Experiment: as above
# Experimental: as §1
row,Binder,pseudovirus neutralization IC50 [µg/mL]
1,B1,> 10
2,B2,> 10
3,B3,7.44
4,B4,> 10
5,B5,> 10
6,B6,> 10
7,B7,> 10
8,B8,> 10
9,B9,1.75
10,B10,5.55
11,B11,5.88
12,B12,3.41

# Biological target: SARS-CoV-2 early D614G spike pseudovirus
# Experiment: as above
# Experimental: as §1
row,Binder,pseudovirus neutralization IC50 [µg/mL]
1,B1,0.776
2,B2,0.0671
3,B3,0.433
4,B4,0.029
5,B5,0.804
6,B6,> 10
7,B7,> 10
8,B8,0.0056
9,B9,1.58
10,B10,4.54
11,B11,0.187
12,B12,0.0194
